# Article PMC9270327 (Communications Biology, 2022)
# By UniProt entry, the sequences of proteins in these tests, tags left out.
# UniProt O15393, whole entry: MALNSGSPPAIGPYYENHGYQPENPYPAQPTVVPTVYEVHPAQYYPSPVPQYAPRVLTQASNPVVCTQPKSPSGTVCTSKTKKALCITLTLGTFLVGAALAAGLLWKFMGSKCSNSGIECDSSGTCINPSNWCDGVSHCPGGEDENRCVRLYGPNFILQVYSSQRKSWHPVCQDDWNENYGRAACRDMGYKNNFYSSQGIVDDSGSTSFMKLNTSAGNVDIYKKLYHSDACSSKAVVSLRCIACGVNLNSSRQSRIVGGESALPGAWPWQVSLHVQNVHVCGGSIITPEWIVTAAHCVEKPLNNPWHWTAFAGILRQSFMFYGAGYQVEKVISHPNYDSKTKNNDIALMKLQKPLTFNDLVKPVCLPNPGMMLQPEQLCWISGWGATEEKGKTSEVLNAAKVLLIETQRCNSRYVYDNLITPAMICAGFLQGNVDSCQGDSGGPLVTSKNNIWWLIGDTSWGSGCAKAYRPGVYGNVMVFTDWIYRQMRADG
# Key:
# [1] = system: lentiviral pseudoparticles carrying SARS-CoV-2 Delta (B.1.617.2) spike, Caco-2 cells; assay: Pseudovirus inhibition assay, Delta spike; details: for SARS-CoV-2 spike driven entry, Mean (0 nM = 100): Fig. 5d, Delta spike pseudoparticles
# [2] = system: lentiviral pseudoparticles carrying SARS-CoV-2 Omicron BA.1 (B.1.1.529) spike, Caco-2 cells; assay: Pseudovirus inhibition assay, Omicron BA.1 spike; details: for SARS-CoV-2 spike driven entry, Mean (0 nM = 100): Fig. 5e, Omicron BA.1 spike pseudoparticles
# [3] = system: SARS-CoV-2 Wuhan-Hu-1, Caco-2 cells; assay: SARS-CoV-2 inhibition assay, Wuhan-Hu-1 (in-cell ELISA); details: for SARS-CoV-2 infection, Mean (0 nM = 100): Fig. 6a, Wuhan-Hu-1
# [4] = system: SARS-CoV-2 Alpha (B.1.1.7), Caco-2 cells; assay: SARS-CoV-2 inhibition assay, VOC Alpha (in-cell ELISA); details: for SARS-CoV-2 infection, Mean (0 nM = 100): Fig. 6c, VOC Alpha
# [5] = system: SARS-CoV-2 Beta (B.1.351), Caco-2 cells; assay: SARS-CoV-2 inhibition assay, VOC Beta (in-cell ELISA); details: for SARS-CoV-2 infection, Mean (0 nM = 100): Fig. 6d, VOC Beta
# [6] = Stability and epimerization in 25% human serum by analytical HPLC; format: in vitro ADME
# [7] = target: TMPRSS2 (Homo sapiens, UniProt O15393); details: for TMPRSS2 activity, Mean (Fig. 2a): normalized, 0 nM = 100
# [8] = target: cellular TMPRSS2 activity, Caco-2 cells (Homo sapiens, UniProt O15393); details: for cellular protease activity on Caco-2 cells, Mean (Fig. 4a): normalized, 0 nM = 100
structure (smiles),measurement,setting,value
CC(=O)N[C@H](CCCNC(=N)N)C(=O)N[C@@H](CC1CCC1)C(=O)NC(CCCNC(=N)N)C(=O)c1nc2ccccc2s1 (stereo partly drawn),"SARS-CoV-2 spike driven entry, Mean (0 nM = 100)",[1]; compound 16 nM,100.33
same,"SARS-CoV-2 spike driven entry, Mean (0 nM = 100)",[1]; compound 80 nM,85.6739
same,"SARS-CoV-2 spike driven entry, Mean (0 nM = 100)",[1]; compound 400 nM,79.1202
same,"SARS-CoV-2 spike driven entry, Mean (0 nM = 100)",[1]; compound 2000 nM,58.8733
same,"SARS-CoV-2 spike driven entry, Mean (0 nM = 100)",[1]; compound 10000 nM,21.9072
same,"SARS-CoV-2 spike driven entry, Mean (0 nM = 100)",[1]; compound 50000 nM,4.684
same,IC50,"[1]; read-out: IC50 pseudotyped lentivirus Delta, Caco-2 cells, luciferase 2 days post transduction",2370 nM
same,"SARS-CoV-2 spike driven entry, Mean (0 nM = 100)",[2]; compound 3.2 nM,103.666
same,"SARS-CoV-2 spike driven entry, Mean (0 nM = 100)",[2]; compound 16 nM,113.557
same,"SARS-CoV-2 spike driven entry, Mean (0 nM = 100)",[2]; compound 80 nM,97.4995
same,"SARS-CoV-2 spike driven entry, Mean (0 nM = 100)",[2]; compound 400 nM,81.636
same,"SARS-CoV-2 spike driven entry, Mean (0 nM = 100)",[2]; compound 2000 nM,44.3593
same,"SARS-CoV-2 spike driven entry, Mean (0 nM = 100)",[2]; compound 10000 nM,14.8062
same,"SARS-CoV-2 spike driven entry, Mean (0 nM = 100)",[2]; compound 50000 nM,6.34
same,IC50,"[2]; read-out: IC50 pseudotyped lentivirus Omicron BA.1, Caco-2 cells, luciferase 2 days post transduction",1700 nM
same,"SARS-CoV-2 infection, Mean (0 nM = 100)",[3]; compound 32 nM,96.6009
same,"SARS-CoV-2 infection, Mean (0 nM = 100)",[3]; compound 160 nM,91.5577
same,"SARS-CoV-2 infection, Mean (0 nM = 100)",[3]; compound 800 nM,91.9279
same,"SARS-CoV-2 infection, Mean (0 nM = 100)",[3]; compound 4000 nM,91.0242
same,"SARS-CoV-2 infection, Mean (0 nM = 100)",[3]; compound 20000 nM,52.5277
same,"SARS-CoV-2 infection, Mean (0 nM = 100)",[3]; compound 100000 nM,-3.542
same,IC50,"[3]; read-out: IC50 SARS-CoV-2 Wuhan-Hu-1, Caco-2 cells, in-cell ELISA 2 days post infection",20400 nM
same,"SARS-CoV-2 infection, Mean (0 nM = 100)",[4]; compound 32 nM,99.603
same,"SARS-CoV-2 infection, Mean (0 nM = 100)",[4]; compound 160 nM,94.5642
same,"SARS-CoV-2 infection, Mean (0 nM = 100)",[4]; compound 800 nM,94.1372
same,"SARS-CoV-2 infection, Mean (0 nM = 100)",[4]; compound 4000 nM,99.1068
same,"SARS-CoV-2 infection, Mean (0 nM = 100)",[4]; compound 20000 nM,64.1559
same,"SARS-CoV-2 infection, Mean (0 nM = 100)",[4]; compound 100000 nM,-1.589
same,IC50,"[4]; read-out: IC50 SARS-CoV-2 Alpha, Caco-2 cells, in-cell ELISA 2 days post infection",21600 nM
same,"SARS-CoV-2 infection, Mean (0 nM = 100)",[5]; compound 32 nM,93.6693
same,"SARS-CoV-2 infection, Mean (0 nM = 100)",[5]; compound 160 nM,88.8083
same,"SARS-CoV-2 infection, Mean (0 nM = 100)",[5]; compound 800 nM,88.1239
same,"SARS-CoV-2 infection, Mean (0 nM = 100)",[5]; compound 4000 nM,87.5608
same,"SARS-CoV-2 infection, Mean (0 nM = 100)",[5]; compound 20000 nM,80.5966
same,"SARS-CoV-2 infection, Mean (0 nM = 100)",[5]; compound 100000 nM,-1.144
same,IC50,"[5]; read-out: IC50 SARS-CoV-2 Beta, Caco-2 cells, in-cell ELISA 2 days post infection",24000 nM
same,time to epimerization of the P1 Arg Cα-atom,[6],≤ 30 min
same,"TMPRSS2 activity, Mean (Fig. 2a)",[7]; 0.05 nM,93.8202
same,"TMPRSS2 activity, Mean (Fig. 2a)",[7]; 0.5 nM,96.1798
same,"TMPRSS2 activity, Mean (Fig. 2a)",[7]; 5 nM,91.4607
same,"TMPRSS2 activity, Mean (Fig. 2a)",[7]; 50 nM,64.6067
same,"TMPRSS2 activity, Mean (Fig. 2a)",[7]; 500 nM,33.4831
same,"TMPRSS2 activity, Mean (Fig. 2a)",[7]; 5000 nM,1.685
same,"TMPRSS2 activity, Mean (Fig. 2a)",[7]; 50000 nM,0.5618
same,"TMPRSS2 activity, Mean (Fig. 2a)",[7]; 500000 nM,-0.1124
same,Ki,"[7]; read-out: Ki TMPRSS2, 30 min preincubation, substrate Boc-Gln-Ala-Arg-AMC, Ki from IC50 by Cheng–Prusoff",57.7 nM
same,"cellular protease activity on Caco-2 cells, Mean (Fig. 4a)",[8]; 0.1 nM,98.6486
same,"cellular protease activity on Caco-2 cells, Mean (Fig. 4a)",[8]; 1 nM,97.8378
same,"cellular protease activity on Caco-2 cells, Mean (Fig. 4a)",[8]; 10 nM,84.0541
same,"cellular protease activity on Caco-2 cells, Mean (Fig. 4a)",[8]; 100 nM,62.973
same,"cellular protease activity on Caco-2 cells, Mean (Fig. 4a)",[8]; 1000 nM,30.5405
same,"cellular protease activity on Caco-2 cells, Mean (Fig. 4a)",[8]; 10000 nM,10.2703
same,"cellular protease activity on Caco-2 cells, Mean (Fig. 4a)",[8]; 100000 nM,2.7027
same,IC50,"[8]; read-out: IC50 Caco2, cell-mediated proteolysis of Boc-Gln-Ala-Arg-AMC, 30 min preincubation",234 nM

# Like-named read-outs stand apart in the source and are kept apart here.
